In patent US6689782B2, “Fungal efflux pump inhibitors” (priority 2001, dated 2004):

How the values were obtained:
[1] = system: Candida albicans YEM15 (over-expressing the CDR1 and CDR2 pumps); experiment: checkerboard assay / broth microdilution, potentiation of fluconazole vs. C. albicans; conditions: 48 h
[2] = system: C. glabrata YEM19 (over-expressing the CgCDR1 and CgCDR2 pumps); experiment: checkerboard assay / broth microdilution, potentiation of fluconazole vs. C. glabrata; conditions: Nakaseomyces glabratus, 48 h

COc1ccc(N(C(=O)Nc2ccc(F)cc2)C(C)c2nc3ccccc3c(=O)n2N2CCN(C(=O)[C@H](C)N(C)C(=O)OC(C)(C)C)CC2)c(OC)c1 (mixture of isomers) [Compound 301]
MIC [1]: > 32 µg/mL | MIC [2]: > 32 µg/mL

COc1ccc(N(C(=O)Nc2ccc(F)cc2)C(C)c2nc3ccc(Cl)cc3c(=O)n2N2CCN(C(=O)[C@H](C)NC(=O)OC(C)(C)C)CC2)c(OC)c1 (mixture of isomers) [Compound 312]
MIC [1]: > 32 µg/mL | MIC [2]: > 32 µg/mL

COC(=O)N[C@H](C(=O)N1CCN(n2c(C(C)N(C(=O)Nc3ccc(F)cc3)c3ccc(OC)cc3OC)nc3ccccc3c2=O)CC1)C(C)C (mixture of isomers) [Compound 295]
MIC [1]: > 32 µg/mL | MIC [2]: > 32 µg/mL

COc1ccc(N(C(=O)Nc2ccc(F)cc2)C(C)c2nc3ccccc3c(=O)n2N2CCN(C(=O)C(C)N(C)C)CC2)c(OC)c1 (racemic) [Compound 313]
MIC [1]: > 32 µg/mL | MIC [2]: > 32 µg/mL

COc1ccc(N(C(=O)Nc2ccc(F)cc2)C(C)c2nc3cc(Cl)ccc3c(=O)n2N2CCN(C(=O)[C@@H](NC(=O)OC(C)(C)C)[C@H](C)O)CC2)c(OC)c1 (mixture of isomers) [Compound 270]
MIC [1]: > 32 µg/mL | MIC [2]: > 32 µg/mL

COc1ccc(N(C(=O)Nc2ccc(F)cc2)C(C)c2nc3cc(Cl)ccc3c(=O)n2N2CCN(C(=O)[C@@H]3CCC(=O)N3)CC2)c(OC)c1 (mixture of isomers) [Compound 259]
MIC [1]: > 32 µg/mL | MIC [2]: > 32 µg/mL

CCOC(=O)N(C)[C@@H](C)C(=O)N1CCN(n2c(C(C)N(C(=O)Nc3ccc(F)cc3)c3ccc(OC)cc3OC)nc3ccccc3c2=O)CC1 (mixture of isomers) [Compound 298]
MIC [1]: > 32 µg/mL | MIC [2]: > 32 µg/mL

CC[C@H](NC(=O)OC)C(=O)N1CCN(n2c(C(C)N(C(=O)Nc3ccc(F)cc3)c3ccc(OC)cc3OC)nc3ccccc3c2=O)CC1 (mixture of isomers) [Compound 291]
MIC [1]: > 32 µg/mL | MIC [2]: > 32 µg/mL

CC[C@H](N)C(=O)N1CCN(n2c(C(C)N(C(=O)Nc3ccc(F)cc3)c3ccc(OC)cc3OC)nc3ccc(Cl)cc3c2=O)CC1 (mixture of isomers) [Compound 281]
MIC [1]: > 32 µg/mL | MIC [2]: > 32 µg/mL

CC[C@H](NC(=O)OC(C)C)C(=O)N1CCN(n2c(C(C)N(C(=O)Nc3ccc(F)cc3)c3ccc(OC)cc3OC)nc3ccccc3c2=O)CC1 (mixture of isomers) [Compound 286]
MIC [1]: > 32 µg/mL | MIC [2]: > 32 µg/mL

COC(=O)N[C@@H](C)C(=O)N1CCN(n2c(C(C)N(C(=O)Nc3ccc(F)cc3)c3ccc(OC)cc3OC)nc3ccc(OC)cc3c2=O)CC1 (mixture of isomers) [Compound 308]
MIC [1]: > 32 µg/mL | MIC [2]: > 32 µg/mL

COc1ccc(N(C(=O)Nc2ccc(F)cc2)C(C)c2nc3ccccc3c(=O)n2N2CCN(C(=O)[C@@H](NC(=O)OC(C)C)C(C)C)CC2)c(OC)c1 (mixture of isomers) [Compound 294]
MIC [1]: > 32 µg/mL | MIC [2]: > 32 µg/mL

COC(=O)NC(C)(C)C(=O)N1CCN(n2c(C(C)N(C(=O)Nc3ccc(F)cc3)c3ccc(OC)cc3OC)nc3cc(F)c(F)cc3c2=O)CC1 (racemic) [Compound 333]
MIC [1]: > 32 µg/mL | MIC [2]: > 32 µg/mL

COc1ccc(N(C(=O)Nc2ccc(F)cc2)C(C)c2nc3cc(Cl)ccc3c(=O)n2N2CCN(C(=O)C(C)(C)N)CC2)c(OC)c1 (racemic) [Compound 328]
MIC [1]: > 32 µg/mL | MIC [2]: > 32 µg/mL

CCOC(=O)NCCC(=O)N1CCN(n2c(C(C)N(C(=O)Nc3ccc(F)cc3)c3ccc(OC)cc3OC)nc3ccccc3c2=O)CC1 (racemic) [Compound 319]
MIC [1]: > 32 µg/mL | MIC [2]: > 32 µg/mL

COc1ccc(N(C(=O)Nc2ccc(F)cc2)C(C)c2nc3ccc(Cl)cc3c(=O)n2N2CCN(C(=O)[C@H](C)N)CC2)c(OC)c1 (mixture of isomers) [Compound 303]
MIC [1]: > 32 µg/mL | MIC [2]: > 32 µg/mL

COc1ccc(N(C(=O)Nc2ccc(F)cc2)C(C)c2nc3ccccc3c(=O)n2N2CCN(C(=O)Cc3csc(N)n3)CC2)c(OC)c1 (racemic) [Compound 318]
MIC [1]: > 32 µg/mL | MIC [2]: > 32 µg/mL

COc1ccc(N(C(=O)Nc2ccc(F)cc2)C(C)c2nc3cc(F)c(F)cc3c(=O)n2N2CCN(C(=O)[C@H](C)NC(=O)OC(C)(C)C)CC2)c(OC)c1 (mixture of isomers) [Compound 311]
MIC [1]: > 32 µg/mL | MIC [2]: > 32 µg/mL

CCOC(=O)N[C@H](C(=O)N1CCN(n2c(C(C)N(C(=O)Nc3ccc(F)cc3)c3ccc(OC)cc3OC)nc3cc(Cl)ccc3c2=O)CC1)[C@@H](C)O (mixture of isomers) [Compound 264]
MIC [1]: > 32 µg/mL | MIC [2]: > 32 µg/mL

COC(=O)N[C@H](C(=O)N1CCN(n2c(C(C)N(C(=O)Nc3ccc(F)cc3)c3ccc(OC)cc3OC)nc3cc(F)ccc3c2=O)CC1)[C@H](C)O (mixture of isomers) [Compound 267]
MIC [1]: > 32 µg/mL | MIC [2]: > 32 µg/mL

CCOC(=O)N[C@@H](CC)C(=O)N1CCN(n2c(C(C)N(C(=O)Nc3ccc(F)cc3)c3ccc(OC)cc3OC)nc3ccccc3c2=O)CC1 (mixture of isomers) [Compound 285]
MIC [1]: > 32 µg/mL | MIC [2]: > 32 µg/mL

COc1ccc(N(C(=O)Nc2ccc(F)cc2)C(C)c2nc3ccccc3c(=O)n2N2CCN(C(=O)CN(C)C(=O)OC(C)C)CC2)c(OC)c1 (racemic) [Compound 323]
MIC [1]: > 32 µg/mL | MIC [2]: > 32 µg/mL

CCOC(=O)N[C@H](C(=O)N1CCN(n2c(C(C)N(C(=O)Nc3ccc(F)cc3)c3ccc(OC)cc3OC)nc3ccc(Cl)cc3c2=O)CC1)[C@@H](C)O (mixture of isomers) [Compound 263]
MIC [1]: > 32 µg/mL | MIC [2]: > 32 µg/mL

COc1ccc(N(C(=O)Nc2ccc(F)cc2)C(C)c2nc3ccc(Cl)cc3c(=O)n2N2CCN(C(=O)[C@H]3NC(=O)O[C@@H]3C)CC2)c(OC)c1 (mixture of isomers) [Compound 255]
MIC [1]: > 32 µg/mL | MIC [2]: > 32 µg/mL

COc1ccc(N(C(=O)Nc2ccc(F)cc2)C(C)c2nc3cc(F)c(F)cc3c(=O)n2N2CCN(C(=O)C[C@@H]3CCCN3)CC2)c(OC)c1 (mixture of isomers) [Compound 315]
MIC [1]: > 32 µg/mL | MIC [2]: > 32 µg/mL

COC(=O)N[C@@H](C)C(=O)N1CCN(n2c(C(C)N(C(=O)Nc3ccc(F)cc3)c3ccc(OC)cc3OC)nc3cc(F)ccc3c2=O)CC1 (mixture of isomers) [Compound 310]
MIC [1]: > 32 µg/mL | MIC [2]: > 32 µg/mL

COc1ccc(N(C(=O)Nc2ccc(F)cc2)C(C)c2nc3ccccc3c(=O)n2N2CCN(C(=O)[C@@H](NC(=O)OC(C)(C)C)[C@H](C)O)CC2)c(OC)c1 (mixture of isomers) [Compound 272]
MIC [1]: > 32 µg/mL | MIC [2]: > 32 µg/mL

COc1ccc(N(C(=O)Nc2ccc(F)cc2)C(C)c2nc3cc(F)ccc3c(=O)n2N2CCN(C(=O)C(C)(C)N)CC2)c(OC)c1 (racemic) [Compound 329]
MIC [1]: > 32 µg/mL | MIC [2]: > 32 µg/mL

COc1ccc(N(C(=O)Nc2ccc(F)cc2)C(C)c2nc3ccccc3c(=O)n2N2CCN(C(=O)CCNC(=O)OC(C)C)CC2)c(OC)c1 (racemic) [Compound 320]
MIC [1]: > 32 µg/mL | MIC [2]: > 32 µg/mL

COc1ccc(N(C(=O)Nc2ccc(F)cc2)C(C)c2nc3ccccc3c(=O)n2N2CCN(C(=O)C(C)(C)NC(=O)OC(C)C)CC2)c(OC)c1 (racemic) [Compound 332]
MIC [1]: > 32 µg/mL | MIC [2]: > 32 µg/mL

COC(=O)NC(C)(C)C(=O)N1CCN(n2c(C(C)N(C(=O)Nc3ccc(F)cc3)c3ccc(OC)cc3OC)nc3cc(Cl)ccc3c2=O)CC1 (racemic) [Compound 335]
MIC [1]: > 32 µg/mL | MIC [2]: > 32 µg/mL

COc1ccc(N(C(=O)Nc2ccc(F)cc2)C(C)c2nc3cc(Cl)ccc3c(=O)n2N2CCN(C(=O)[C@H]3NC(=O)O[C@@H]3C)CC2)c(OC)c1 (mixture of isomers) [Compound 256]
MIC [1]: > 32 µg/mL | MIC [2]: > 32 µg/mL

COc1ccc(N(C(=O)Nc2ccc(F)cc2)C(C)c2nc3ccccc3c(=O)n2N2CCN(C(=O)[C@H](C)N(C)C(=O)OC(C)C)CC2)c(OC)c1 (mixture of isomers) [Compound 299]
MIC [1]: > 32 µg/mL | MIC [2]: > 32 µg/mL

COc1ccc(N(C(=O)Nc2ccc(F)cc2)C(C)c2nc3ccc(Cl)cc3c(=O)n2N2CCN(C(=O)[C@@H]3CCC(=O)N3)CC2)c(OC)c1 (mixture of isomers) [Compound 258]
MIC [1]: > 32 µg/mL | MIC [2]: > 32 µg/mL

COc1ccc(N(C(=O)Nc2ccc(F)cc2)C(C)c2nc3cc(Cl)ccc3c(=O)n2N2CCN(C(=O)[C@H](C)N)CC2)c(OC)c1 (mixture of isomers) [Compound 304]
MIC [1]: > 32 µg/mL | MIC [2]: > 32 µg/mL

COC(=O)N[C@H](C(=O)N1CCN(n2c(C(C)N(C(=O)Nc3ccc(F)cc3)c3ccc(OC)cc3OC)nc3cc(Cl)ccc3c2=O)CC1)[C@@H](C)O (mixture of isomers) [Compound 266]
MIC [1]: > 32 µg/mL | MIC [2]: > 32 µg/mL

CC[C@H](NC(=O)OC)C(=O)N1CCN(n2c(C(C)N(C(=O)Nc3ccc(F)cc3)c3ccc(OC)cc3OC)nc3cc(Cl)ccc3c2=O)CC1 (mixture of isomers) [Compound 289]
MIC [1]: > 32 µg/mL | MIC [2]: > 32 µg/mL

COc1ccc(N(C(=O)Nc2ccc(F)cc2)C(C)c2nc3ccccc3c(=O)n2N2CCN(C(=O)C3COCCN3)CC2)c(OC)c1 (racemic) [Compound 253]
MIC [1]: > 32 µg/mL | MIC [2]: > 32 µg/mL

COC(=O)NCCC(=O)N1CCN(n2c(C(C)N(C(=O)Nc3ccc(F)cc3)c3ccc(OC)cc3OC)nc3ccccc3c2=O)CC1 (racemic) [Compound 321]
MIC [1]: > 32 µg/mL | MIC [2]: > 32 µg/mL

COc1ccc(N(C(=O)Nc2ccc(F)cc2)C(C)c2nc3cc(Cl)ccc3c(=O)n2N2CCN(C(=O)C[C@@H]3CCCN3)CC2)c(OC)c1 (mixture of isomers) [Compound 317]
MIC [1]: > 32 µg/mL | MIC [2]: > 32 µg/mL

CC[C@H](N)C(=O)N1CCN(n2c(C(C)N(C(=O)Nc3ccc(F)cc3)c3ccc(OC)cc3OC)nc3cc(Cl)ccc3c2=O)CC1 (mixture of isomers) [Compound 282]
MIC [1]: > 32 µg/mL | MIC [2]: > 32 µg/mL

CCOC(=O)NC(C)(C)C(=O)N1CCN(n2c(C(C)N(C(=O)Nc3ccc(F)cc3)c3ccc(OC)cc3OC)nc3ccccc3c2=O)CC1 (racemic) [Compound 331]
MIC [1]: > 32 µg/mL | MIC [2]: > 32 µg/mL
